{
  "source": "paper PMC12285254",
  "tested_on": "TetR1 (C_22735)",
  "assay": "EMSA",
  "settings": "supershift with anti-Myc (Myc.A7); LightShift EMSA Optimization and Control kit (Thermo) per manufacturer, 100 ng probe per reaction, varied protein; 2 uL of 1 mg/mL Myc.A7 for supershift; recombinant protein; residues 1-189; label: biotin (labeled or unlabeled primers); probe letters rebuilt from the primers and the genome",
  "data": [
    {"sequence": "CGTTACCCGTTTCTTGGATCCCAAAGGTGGCGGATGGCCATATTATTTAGAGTGCGGAATGTGATCATCTTGATGAACTTTTTCAGCCGAATGTAAGTGAAAGATTACACACATTTAGAAACATTCTAGGTGATGGCACGCTATCATCGGTGGTAATAACAGTGGGTTCACAGAACCTTAACCTGCGATTTCGGTAATAAGCTACGCTGAATCCTTTCCGCCAATCCTTAGATGGCTGTGCCTGGAAATACTCTAAGCAGGTGGGCTTTTGTTCGGATTGCCGAATGCGATGATGACTAAAAGCCATCACTAGTGGTGCCGAAAAACCGGGGCTATGACCGCTTTGCCAGTATTCAAGCCTCTGTGTTGTTCGGAAATCCGACTGCTCGTGGAGGCGGTACTAAGCTCGTTGTATTGACTGTTAAAGTGTGCAAGTAATTAGTGTCAGGCTGTTGTTTGTTTTTTGATATTATTGTTATCCGCTTCTTTAAGCTCGCCGTTACAAATCGGTTGGTTTTCTTTTTTTTTGTGTTCGGGTTTCTGCTGTTTTCTTACTTGCCACTCCCTTTAGTTTTTTTGAAGGGTCTTATATATGTCTCTCGAGTAGTGACAATAAGTTAGTTGCGTTTGATTGCGCGATTTTGGGGCGCTTGCTGCTCAAAGGTGCCCGGTCTTCTCTCTGGTCACAGCTGCCTTCAGGTGTGGAGAGGCCCTGTGGCTGCGGGGTGAGCCAGTGCATGGGCACTGTAAGCGCTTGTTCGCATTGGAGTAACGATAGATTAAAGTAATCATCTCAAGAGCCTGAGTCTATCGGCGGGGTCGGCTTGGTATGATGATATTACTATGATAGTAATTCTCAACTTTGTGATCTTTTTCTCATTTTCCGGGGAACTAAATTAATATATGTCTGCCTTGTAAGACGTGGTATTAATACTCCGCTTGCCACCCACAATGAGAGTGAACGATGAGCACAGGC (double strand) [hrpR upstream probe (976 bp)]", "values": [
      {"measurement": "binding result", "result": "binds"}
    ]}
  ]
}
